PubChem BioAssay AID504761 – Drosophila RNAi Screening Center, 2011
In all, the deposit lists about 22,000 reagents; shown is a random part of those with a known target gene and a result. In the full data, 116 (0.52%) were called active. 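Calls depend on retest data that are not deposited; infection was ranked per plate without normalising between plates; the unit of the infection score is not given.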 The raw values are shown without normalisation. The numbers tell different reagents against one gene apart. A plus sign joins genes that one reagent is predicted to hit. The record does not give: the amount of reagent, the time to read-out.

Test: 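Genome-wide fly cell screen for genes dengue virus requires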 (primary screen)
Cells: D.Mel-2 cells from Drosophila
Knock-down reagent: long dsRNA against Drosophila genes
Treatment: infection with dengue virus type 2; dose and infection time not stated
Detection: 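Cells stained for dengue envelope protein and imaged; percent of infected cells per well on duplicate plates, ranked by infection, with stained nuclei counted for cell number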
Reading the numbers: infection score: higher = more virus-infected cells; cell count: higher = more cells in the well
Rule for the call: 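Low infection ranks in the two replicates (chance level up to 0.065) followed by a retest with a 1.5-fold or larger significant decrease, p below 0.05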
Calls: active = confirmed: knock-down lowers infection; inactive = not picked or not confirmed

For Creld #1, what does the deposit list?
infection score, replicate 1: 14.6; infection score, replicate 2: 20.1; cell count, replicate 1: 6575; cell count, replicate 2: 6255; Call: inactive

What did the screen give for Creld #2?
infection score, replicate 2: 13.4; cell count, replicate 1: 304; cell count, replicate 2: 5371; Call: inactive

For CG14546, what does the deposit list?
infection score, replicate 1: 7.77; infection score, replicate 2: 2.96; cell count, replicate 1: 6513; cell count, replicate 2: 6495; Call: inactive

For CG4860 #1, how do the results read?
infection score, replicate 1: 7.53; infection score, replicate 2: 8.64; cell count, replicate 1: 6557; cell count, replicate 2: 6235; Call: inactive

With CG4860 #2, how do the results read?
infection score, replicate 1: 1.87; infection score, replicate 2: 1.07; cell count, replicate 1: 6311; cell count, replicate 2: 6371; Call: inactive

Copied from the listing (2 entries):
Creld #2 → infection score, replicate 2: 13.4; cell count, replicate 1: 304; cell count, replicate 2: 5371; Call: inactive
CG14546 → infection score, replicate 1: 7.77; infection score, replicate 2: 2.96; cell count, replicate 1: 6513; cell count, replicate 2: 6495; Call: inactive

Additional reagents follow:
For upd3 #1, what does the deposit list?
infection score, replicate 1: 10.1; infection score, replicate 2: 15.8; cell count, replicate 1: 2646; cell count, replicate 2: 3733; Call: inactive

With upd3 #2, what does the deposit list?
infection score, replicate 1: 22; infection score, replicate 2: 19.4; cell count, replicate 1: 2705; cell count, replicate 2: 4287; Call: inactive

With upd3 #3, what was measured?
infection score, replicate 1: 3.55; infection score, replicate 2: 2.18; cell count, replicate 1: 5433; cell count, replicate 2: 5603; Call: inactive

Which result is listed for Brr2?
infection score, replicate 1: 12.2; infection score, replicate 2: 27.8; cell count, replicate 1: 1429; cell count, replicate 2: 1062; Call: inactive

What is on record for Ir52a?
infection score, replicate 1: 5.99; infection score, replicate 2: 5; cell count, replicate 1: 6862; cell count, replicate 2: 6774; Call: inactive

What is on record for H #1?
infection score, replicate 1: 4.04; infection score, replicate 2: 1.12; cell count, replicate 1: 6913; cell count, replicate 2: 7163; Call: inactive

How did the screen score H #2?
infection score, replicate 1: 2.9; infection score, replicate 2: 2.72; cell count, replicate 1: 5965; cell count, replicate 2: 6039; Call: inactive

What is on record for CG15386 + CG42371 #1?
infection score, replicate 1: 6; infection score, replicate 2: 8.41; cell count, replicate 1: 5884; cell count, replicate 2: 6328; Call: inactive

How did the screen score CG15386 + CG42371 #2?
infection score, replicate 1: 2.54; infection score, replicate 2: 6.01; cell count, replicate 1: 5868; cell count, replicate 2: 5677; Call: inactive
